In ChEMBL document CHEMBL1155139 (Antimicrob Agents Chemother, 2007):

Columns and labels:
[1] = system: Plasmodium berghei; test: Antimalarial activity as reduced parasitaemia at day 3 against Plasmodium berghei infected MORO mice (Mus musculus) at 100 mg/kg peroral dose; format: functional; design: scale not given: the % may be the effect or the level left
[2] = system: Plasmodium berghei; test: Antimalarial activity as reduced parasitaemia at day 3 against Plasmodium berghei infected MORO mice (Mus musculus) at 100 mg/kg subcutaneous dose; format: functional; design: scale not given: the % may be the effect or the level left

SMILES | Activity [1] [%] | Activity [2] [%]
C1CC2(CCO1)OOC1(CCOCC1)OO2 | 22 | 0
C1CCC2(C1)OOC1(CCCC1)OO2 | 35 | 84
